Pooled drug test results. Numbers come from NIAID ChemDB, via PubChem.

Shared fields: whole-cell or culture tests; agent: Herpes simplex virus 2; method: cytopathic effect; measure: EC50

Lines come from different laboratories, so protocols vary.

structure,strain or isolate,cells,value
NC(=O)c1cn([C@@H]2O[C@H](CO)[C@@H](O)[C@@H]2O)c2ncnc(N)c12,G,PRK,1 µg/mL
O=C(O)CP(=O)(O)O,PCV-resistant/A,HEL,6.4 µg/mL
COP(=O)(CC(=O)O[C@H]1C[C@H](n2cc(CCCl)c(=O)[nH]c2=O)O[C@@H]1CO)OC,K979,VERO,>22.7 µM
OC[C@H]1O[C@H](n2cnc3cc(Cl)c(Cl)cc32)[C@@H](O)[C@H]1O,G,E6SM,200 µg/mL
O=c1[nH]c(=O)n([C@H]2C[C@H](O)[C@@H](CO)O2)cc1I,K979,VERO,>2.8 µM
N#Cc1cn([C@@H]2O[C@H](CO)C[C@H]2O)c2ncnc(N)c12,G,PRK,≥0.4 µg/mL
O=C(O)P(=O)(O)O,PCV-resistant/A,HEL,16 µg/mL
CC(C)[Si]1(C(C)C)OC[C@H]2O[C@@H](n3cnc4cc(Cl)c(Cl)cc43)[C@@H](O)[C@H]2O[Si](C(C)C)(C(C)C)O1,G,E6SM,>100 µg/mL
N#Cc1cn([C@H]2C[C@H](O)[C@@H](CO)O2)c2ncnc(N)c12,G,PRK,0.3 µg/mL
O=c1[nH]c(=O)n([C@H]2C[C@H](O)[C@@H](CO)S2)cc1C1CC1,G 196 LYONS,E6SM,2.6 µM
Nc1nccc2c1ncn2[C@@H]1O[C@H](CO)[C@@H](O)[C@H]1O,LYONS G 196,PRK,≥40 µg/mL
NC(=O)c1c[se]c([C@@H]2O[C@H](CO)[C@@H](O)[C@H]2O)n1,MS,VERO,10 µg/mL
O=C(O)c1cc(O)c(O)c(O)c1,G,E6SM,20 µg/mL
OC[C@H]1O[C@@H](n2cnc3cc(Cl)c(Cl)cc32)[C@H](O)[C@@H]1O,G,E6SM,10 µg/mL
Nc1ccn(C[C@@H](CO)OCP(=O)(O)O)c(=O)n1,HS-47,HEL,0.32 µg/mL
Nc1nc2c(ncn2COC(CO)CO)c(=O)[nH]1,G,HEL,0.002 µg/mL
Nc1nc2c(ncn2COC(CO)CO)c(=O)[nH]1,HS-47,HEL,0.0015 µg/mL
CCc1cn([C@H]2C[C@H](O)[C@@H](CO)S2)c(=O)[nH]c1=O,G 196 LYONS,E6SM,0.23 µM
O=C(O)Cc1cc(O)ccc1O,G,E6SM,4 µg/mL
COc1cc(O)c(CC=C(C)C)c2c1C(=O)CC(c1ccc(O)cc1)O2,,VERO,17 µg/mL
CCc1cn([C@H]2C[C@H](O)[C@@H](CO)O2)c(=O)[nH]c1=O,G 196 LYONS,E6SM,8.3 µM
O=C(O)CP(=O)(O)O,HS-44,HEL,10.2 µg/mL
Nc1nc(N)c2ncn(CCOCP(=O)(O)O)c2n1,PCV-resistant/A,HEL,1.6 µg/mL
O=C(O)P(=O)(O)O,K979,VERO,>238 µM
Nc1ncnc2c1ccn2[C@@H]1O[C@H](CO)[C@H](O)[C@H]1O,LYONS,PRK,0.3 µg/mL
Nc1ncnc2c1ncn2C[C@H](O)CO,LYONS,PRK,>100 µg/mL
Cc1c(CC(=O)O)ccc(O)c1O,G,E6SM,40 µg/mL
OCCOC(CO)n1cnc2cc(Cl)c(Cl)cc21,G,E6SM,>200 µg/mL
Nc1nc2c(ncn2CCC(CO)CO)c(=O)[nH]1,HS-44,HEL,>20 µg/mL
O=c1[nH]c(=O)n([C@H]2C[C@H](O)[C@@H](CO)O2)cc1C1CCCCC1,G 196 LYONS,E6SM,>1200 µM
O[C@@H]1CC(n2cnc3cc(Cl)c(Cl)cc32)OC[C@@H]1O,G,E6SM,>100 µg/mL
Nc1ncnc2c1ncn2C[C@@H](CO)OCP(=O)(O)O,HS-47,HEL,0.11 µg/mL
Cc1cc(O)cc(O)c1CC(=O)O,G,E6SM,40 µg/mL
O=C(O)CP(=O)(O)OC[C@H]1O[C@@H](n2cc(CCCl)c(=O)[nH]c2=O)C[C@@H]1O,TK-,VERO,>232 µM

2 of the rows above, restated:

structure | strain or isolate | cells | value
Cc1c(CC(=O)O)ccc(O)c1O | G | E6SM | 40 µg/mL
Nc1nc2c(ncn2COC(CO)CO)c(=O)[nH]1 | G | HEL | 0.002 µg/mL

An empty or dashed field is not shown. ECn: concentration that inhibits the pathogen or its effect by n%.